PubChem BioAssay AID1224833 – University of Georgia, 2016
Purpose: 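Host factors restraining rotavirus as candidate antiviral genes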 (primary screen). Cell system: monkey MA104 kidney cells. Reagent: siRNA pool against human genes, 50 nM. Duration: 48 h knock-down before infection; read 24 h after infection. Conditions: infection with rotavirus strain RV3 two days after transfection; infectious dose for this stage not given. Measurement: 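z-score of rotavirus antigen signal per well, from a fluorescent immunoassay, relative to non-targeting control wells on the same plate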. Scale: z-score vs non-targeting control: higher = more rotavirus replication than with non-targeting control. Active means: In these data the active calls have z-score vs non-targeting control at about -1 or lower, or at about 1 or higher. Calls: active = z-score beyond 1 either way; inactive = z-score within 1 of zero.
In all, the deposit lists about 12,000 reagents; shown is a random part of them. About 5,600 of them (46%) count as active. 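Active calls cover z-scores past 1 in both directions, so they include lowered as well as raised rotavirus replication.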 Unmarked entries are inactive. No sequences are given here.

no.	gene symbol	z-score vs non-targeting control
1	SPANXA2	-1.02 (active)
2	MAF	1.18 (active)
3	EXOSC6	1.19 (active)
4	ITIH6	0.607
5	ANKMY2	-0.0839
6	FAM209A	-0.462
7	MSANTD4	-0.73
8	HSPG2	-0.682
9	TRA2A	-0.573
10	NCOR1	-1.13 (active)
11	ATP6V0A4	-2.47 (active)
12	FNDC7	-2.7 (active)
13	HNRNPA2B1	-0.0645
14	GSTZ1	-0.727
15	MKKS	-0.808
16	AKT1S1	-0.423
17	ZNF439	-0.157
18	DCDC2	-1.26 (active)
19	EZR	0.48
20	FAM3C	0.0532
21	TLR6	0.101
22	FAS	2.37 (active)
23	ZNF485	-1.17 (active)
24	SPATA12	2.1 (active)
25	TXNL4B	-1.48 (active)
26	ERMP1	0.462
27	MAGEA12	-0.666
28	BAG4	2.53 (active)
29	PRDM10	-0.151
30	PABIR1	0.342
31	RASA2	-0.515
32	NHP2	-0.964
33	NR4A3	-1.16 (active)
34	PLPPR2	-2.06 (active)
35	APOL2	0.0638
36	SERPINB6	1.31 (active)
37	ARF6	0.899
38	CREB3L3	0.0392
39	CEP89	-0.803
40	GLS	-0.849
41	LSM14B	-0.542
42	RBM38	-1.4 (active)
43	MGP	-1.49 (active)
44	BEX2	0.977
45	STRC	-0.279
46	CNTROB	-0.218
47	RTL5	-1.15 (active)
48	FYRD1	-2.33 (active)
49	TYROBP	1.51 (active)
50	GALNT11	-0.962
51	RPN2	1.67 (active)
52	FLG	-1.13 (active)
53	ANXA9	-1.42 (active)
54	ZNF366	-1.08 (active)
55	MAT2B	-2.02 (active)
56	NODAL	0.892
57	HBP1	1.15 (active)
58	CIMIP1	2.96 (active)
59	MS4A13	2.92 (active)
60	CD101	-2.07 (active)
61	GCDH	1.06 (active)
62	BLM	-0.663
63	WSCD1	0.968
64	IL13RA2	1.56 (active)
65	CSTF2	-0.479
66	UNC13A	0.958
67	ZFHX4	-1.5 (active)
68	ZG16	-0.892
69	OR8G5	-0.137
70	MRS2	3.16 (active)
71	SERPINE2	0.185
72	MYO1G	1.04 (active)
73	GARIN4	-1.78 (active)
74	ARMC5	1.63 (active)
75	BST2	-0.716
76	PCDHB6	-0.0598
77	RBBP8	-0.214
78	SPIN1	-0.911
79	SLITRK2	1.04 (active)
80	NIT1	-2.29 (active)
81	CETN2	-1.22 (active)
82	KLF15	-1.61 (active)
83	OR4C6	-1.41 (active)
84	DDX3X	-0.287
85	CPE	0.821
86	METTL3	-0.424
87	ECT2	-1.06 (active)
88	SPON2	-1.18 (active)
89	ARL11	-0.189
90	ERCC3	1.07 (active)
91	HAX1	-1.86 (active)
92	RBP2	-1.14 (active)
93	SMTNL2	0.922
94	UGT1A10	-2.12 (active)
95	NSA2	0.983
96	SIGLEC15	-1.81 (active)
97	LIPA	-3.07 (active)
98	HOOK1	-0.903
99	CTSA	-2.52 (active)
100	IL1B	-2.05 (active)
101	CAPS2	-0.655
102	PTCD1	-1.59 (active)
103	SNRNP27	-0.345
104	TRIP6	-0.926
105	ODR4	-1.45 (active)
106	SLC27A2	-0.483
107	SKA2	0.276
108	OR8U3	-1.56 (active)
109	GLT8D1	-0.502
110	GSTA4	0.941

Looked up above:
Result of WSCD1 under “z-score vs non-targeting control”: 0.968
Value for BLM in “z-score vs non-targeting control”: -0.663
Under “z-score vs non-targeting control”, GARIN4 reads -1.78 (active)
RPN2, z-score vs non-targeting control: 1.67 (active)
HNRNPA2B1, z-score vs non-targeting control = -0.0645
MYO1G, z-score vs non-targeting control → 1.04 (active)
